Pooled drug test results. Numbers come from NIAID ChemDB, via PubChem.

All rows: cytotoxicity tests; cells: CEM; measure: CC50

CCn: concentration that lowers growth or viability of the cells by n%.

C=C(C)[C@@H]1CC[C@]2(C(=O)NCCCCCC(=O)O)CC[C@]3(C)[C@H](CC[C@@H]4[C@@]5(C)CC[C@H](O)C(C)(C)[C@@H]5CC[C@]43C)[C@@H]12 ; value: >3 µM
CCCCC(=O)c1ccc2c(c1)sc(=O)n2CCN1CCOCC1 ; value: 11 µg/mL
Cc1cc(C)cc(Oc2c(C(C)C)c(=O)[nH]c(=O)n2CC2CCCC2)c1 ; value: 19.1 µM
O=C(N[C@@H](CCc1ccccc1)C(=O)O)c1ccccc1SSc1ccccc1C(=O)N[C@@H](CCc1ccccc1)C(=O)O ; value: 68 µM
C=CCN(C(=O)[C@H](Cc1ccccc1)NC(=O)[C@H](C)NC(=O)OC(C)(C)C)C(C)C(=O)N[C@H](C(=O)N[C@H](C(=O)OC)C(C)C)[C@@H](C)CC ; value: >200 µg/mL
O=C(O)CCCCNC(=O)c1ccccc1SSc1ccccc1C(=O)NCCCCC(=O)O ; value: 64 µM
Cc1sccc1C(=S)Nc1ccc(Cl)c(OCC(C)(C)C)c1 ; value: 6.2 µg/mL
Cc1cc(C)cc(C(=O)c2c(C(C)C)c(=O)[nH]c(=O)n2CCC2C=CCC2)c1 ; value: 22.9 µM
Cc1occc1C(=S)Nc1ccc(Cl)c(OC(=O)OC(C)C)c1 ; value: 25 µg/mL
C=C(C)[C@@H]1CC[C@]2(C(=O)NCCCCCCCNC(=O)CCC(=O)O)CC[C@]3(C)[C@H](CC[C@@H]4[C@@]5(C)CC[C@H](O)C(C)(C)[C@@H]5CC[C@]43C)[C@@H]12 ; value: >3 µM
CC(=O)n1c(=O)sc2cc(C(=O)c3cccc(F)c3)ccc21 ; value: 14 µg/mL
Cc1sccc1C(=O)Nc1ccc(Cl)c(C(=O)OC2CCCCC2)c1 ; value: 5.8 µg/mL
CC[C@@H](C)[C@@H](CC(=O)O)NC(=O)c1ccccc1SSc1ccccc1C(=O)N[C@H](CC(=O)O)[C@H](C)CC ; value: >100 µM
C=CCN(CC(=O)N[C@H](C(=O)N[C@H](C(=O)OC)C(C)C)[C@@H](C)CC)C(=O)[C@H](Cc1ccccc1)NC(=O)[C@H](C)NC(=O)[C@H](C)NC(=O)[C@H](CO)NC(=O)OC(C)(C)C ; value: >100 µg/mL
CC(C)=CCOc1cc(NC(=S)c2ccsc2C)ccc1Cl ; value: 5.8 µg/mL
CC[C@H](C)[C@H](NC(=O)CN(CC(Br)CBr)C(=O)[C@H](Cc1ccccc1)NC(=O)OC(C)(C)C)C(=O)N[C@H](C(=O)OC)C(C)C ; value: 42.51 µg/mL
Cc1occc1C(=O)Nc1ccc(Cl)c(C(=O)OC(C)C)c1 ; value: 3.8 µg/mL
C=C(C)[C@@H]1CC[C@]2(C(=O)NCCCCCCCCCCCCC(=O)O)CC[C@]3(C)[C@H](CC[C@@H]4[C@@]5(C)CC[C@H](O)C(C)(C)[C@@H]5CC[C@]43C)[C@@H]12 ; value: >3 µM
C=CCOC(=O)c1cc(NC(=S)c2ccoc2C)ccc1Cl ; value: 11 µg/mL
CCCCC(=O)c1ccc2c(c1)sc(=O)n2Cc1ccccc1 ; value: 3.6 µg/mL
Cc1cc(C)cc(Oc2c(C(C)C)c(=O)[nH]c(=O)n2CCC2C=CCC2)c1 ; value: 20.9 µM
Cc1occc1C(=S)Nc1ccc(Cl)c(OCC(C)(C)C)c1 ; value: 4.1 µg/mL
O=C(c1ccccc1)c1ccc2c(c1)oc(=O)n2CCN1CCOCC1 ; value: 22 µg/mL
C=CCNCC(=O)N[C@H](C(=O)N[C@H](C(=O)OC)C(C)C)[C@@H](C)CC ; value: >66.7 µg/mL
CCOC(=O)CSc1cc(NC(=S)c2ccoc2C)ccc1Cl ; value: ≥100 µg/mL
CC(C)(NC(=O)c1ccccc1SSc1ccccc1C(=O)NC(C)(C)C(=O)O)C(=O)O ; value: >100 µM
C=CCOc1cc(NC(=S)c2sccc2C)ccc1C#N ; value: 3.6 µg/mL
NC(=O)CNC(=O)c1ccccc1SSc1ccccc1C(=O)NCC(N)=O ; value: 22 µM
CCOC(=O)c1cc(NC(=S)c2ccoc2C)ccc1C ; value: 16 µg/mL
C=C(C)[C@@H]1CC[C@]2(C(=O)NCCCCCCC(=O)NCCC(=O)O)CC[C@]3(C)[C@H](CC[C@@H]4[C@@]5(C)CC[C@H](O)C(C)(C)[C@@H]5CC[C@]43C)[C@@H]12 ; value: >3 µM
Cc1sccc1C(=O)Nc1ccc(Cl)c(C(=O)OC(C)C)c1 ; value: 5.5 µg/mL
C=CCN(CC(=O)N[C@H](C(=O)N[C@H](C(=O)OC)C(C)C)[C@@H](C)CC)C(=O)[C@H](Cc1ccccc1)NC(=O)OC(C)(C)C ; value: >100 µg/mL
Cc1cc(C)cc(C(=O)c2c(C(C)C)c(=O)[nH]c(=O)n2CCC2=CCCC2)c1 ; value: 39.5 µM
Cc1occc1C(=S)Nc1ccc(Cl)c(C(=O)OC(C)C2CC2)c1 ; value: 17 µg/mL
CCc1c(Oc2cc(C)cc(C)c2)n(CC2CCCC2)c(=O)[nH]c1=O ; value: 21.6 µM
C=C(C)[C@@H]1CC[C@]2(C(=O)NCCCCC(=O)NCCCCC(=O)O)CC[C@]3(C)[C@H](CC[C@@H]4[C@@]5(C)CC[C@H](O)C(C)(C)[C@@H]5CC[C@]43C)[C@@H]12 ; value: >3 µM

4 of the rows above, restated:

smiles | value
C=CCOc1cc(NC(=S)c2sccc2C)ccc1C#N | 3.6 µg/mL
CC[C@H](C)[C@H](NC(=O)CN(CC(Br)CBr)C(=O)[C@H](Cc1ccccc1)NC(=O)OC(C)(C)C)C(=O)N[C@H](C(=O)OC)C(C)C | 42.51 µg/mL
Cc1occc1C(=O)Nc1ccc(Cl)c(C(=O)OC(C)C)c1 | 3.8 µg/mL
Cc1cc(C)cc(Oc2c(C(C)C)c(=O)[nH]c(=O)n2CCC2C=CCC2)c1 | 20.9 µM

Rows are shuffled and stem from different studies.